Target: MPR.03 peptide
Assay: antigen panel (luminex assay per paragraph 163); unit not given

B1: CAP206-CH12 (antibody, V domains shown)
VH: QVQLVQSGAEVKKPGSSVKLSCKASGGTFGSYSVTWVRQAPGQTFEWVGRIVPWVGVPNYAPKFQGRVTITADKSSTVYMELTSLRFEDTAVYYCATAYEASGLSYYYYMDDWGKGTTVTVSS
VL: EIVLTQSPGTLSLSPGERATLSCRASQSVTSSYLAWFRHKPGQAPRLLIYGASYRGTGIPDRISGSGSGTDFTLTISRLEPEDFAVYYCQHYGGSPGMYTFGQGTRLEIK
reactivity: 23600

— US20120269821A1
